# Reference: PubChem BioAssay AID449762 (Southern Research Specialized Biocontainment Screening …, 2010)
# The list shows a part of the results. Records with an inconclusive call do not appear. Some salts or complexes appear as unconnected parts, following the source record. Activity calls are given as the source filed them. No stated cut-off is given here; in the data, inconclusive means inhibition above about 70% without an active follow-up result; inactive means below that.
# Assay: M. tuberculosis growth inhibition, HTS (AID 449762);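 further: bacterial growth assessed after seven days of incubation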
# Settings: M. tuberculosis H37Rv growth inhibition, 7H9 media; at 25 µM; hits give high values
row,Compound,inhibition
1,CP(=O)(Oc1ccccc1)OC(c1ccccc1)C(F)(F)F (stereo unspecified),inactive: -3.18%
2,Cc1cccc(C)c1OP(C)(=O)Nc1ccc(SC(F)(F)F)cc1 (stereo unspecified),inactive: 6.68%
3,CP(=O)(Nc1ccc(SC(F)(F)F)cc1)Oc1ccc(Cl)cc1 (stereo unspecified),inactive: 5.56%
4,Cc1cc(C)cc(OP(C)(=O)Nc2ccc(SC(F)(F)F)cc2)c1 (stereo unspecified),inactive: 5%
5,CCc1ccc(OP(C)(=O)N2CCN(c3ccc([N+](=O)[O-])cc3)CC2)cc1 (stereo unspecified),inactive: 6.05%
6,CP(=O)(NC(=O)Nc1ccccc1)Oc1ccccc1 (stereo unspecified),inactive: 5.43%
7,CCOP(C)(=S)SCC(=O)NC(C)C(=O)O (stereo unspecified),inactive: -3.29%
8,CCOC(=O)c1ccc(NP(C)(=O)Oc2ccc(OC)cc2)cc1 (stereo unspecified),inactive: -4.52%
9,O=[N+]([O-])c1cc([N+](=O)[O-])c(O)c([N+](=O)[O-])c1.c1ccc(Oc2ccncc2)cc1,inactive: 4.11%
10,CP(=O)(Nc1ccccn1)Oc1ccc(Cl)cc1 (stereo unspecified),inactive: 2.21%
11,CP(=S)(Nn1cnnc1)Oc1ccccc1 (stereo unspecified),inactive: -2.36%
12,COc1ccccc1OP(C)(=O)Nc1ccccc1 (stereo unspecified),inactive: -0.96%
13,CP(=O)(Nc1ccccc1Br)Oc1ccccc1 (stereo unspecified),inactive: -1.59%
14,O=[N+]([O-])c1cc([N+](=O)[O-])c(Nc2cccnc2)c([N+](=O)[O-])c1,inactive: -0.94%
15,Cc1cccc(C)c1OP(C)(N)=O (stereo unspecified),inactive: -6.38%
16,CC(C)(C)c1ccc(OP(C)(=O)Nc2ccc(SC(F)(F)F)cc2)cc1 (stereo unspecified),inactive: 10.7%
17,O=[N+]([O-])c1ccc2c(c1)C=Nc1ccccc1O2,inactive: -0.09%
18,CCOC(=O)c1ccc(NP(C)(=O)Oc2ccccc2)cc1 (stereo unspecified),inactive: 4.66%
19,Cc1ccc(NP(C)(=O)Oc2ccccc2)c(C)c1 (stereo unspecified),inactive: -3.5%
20,COc1ccccc1OP(C)(=O)Nc1ccc(C)cc1 (stereo unspecified),inactive: -4.48%
21,COc1ccc(OP(C)(=O)Nc2cccc(F)c2)cc1 (stereo unspecified),inactive: -0.69%
22,COc1ccccc1OP(C)(=O)Nc1cc(Cl)ccc1C (stereo unspecified),inactive: 2.49%

row,Compound,inhibition
1,Cc1cc(C)cc(OP(C)(N)=O)c1 (stereo unspecified),inactive: 11.3%
2,CCN(CC)CCCOC(=O)C(O)(c1ccccc1)c1ccccc1,inactive: -7.32%
3,COc1ccccc1OP(C)(=O)Nc1cccc(Br)c1 (stereo unspecified),inactive: 7.44%
4,Cc1cc(C)cc(OP(C)(=O)Nc2ccc(C)cc2C)c1 (stereo unspecified),inactive: -3.72%
5,CCOC(=O)c1ccc(NP(C)(=O)Oc2cc(C)cc(C)c2)cc1 (stereo unspecified),inactive: -5.73%
6,CP(=O)(Nc1cccc(Br)c1)Oc1ccccc1 (stereo unspecified),inactive: 3.19%
7,Cc1cc(C)cc(OP(C)(=O)Nc2ccccn2)c1 (stereo unspecified),inactive: 0.42%
8,Cc1ccc(C)c(NP(C)(=O)Oc2ccccc2)c1 (stereo unspecified),inactive: 3.01%
9,O=C(O)c1cccc(Nc2c([N+](=O)[O-])cc([N+](=O)[O-])cc2[N+](=O)[O-])c1,inactive: 10.5%
10,CC1=NCCc2c1[nH]c1ccccc21.O=[N+]([O-])c1cc([N+](=O)[O-])c(O)c([N+](=O)[O-])c1,inactive: 3.79%
11,CCOC(=O)C(CC)C1=NC(C)(C)Cc2ccccc21.O=[N+]([O-])c1cc([N+](=O)[O-])c(O)c([N+](=O)[O-])c1 (stereo unspecified),inactive: 4.93%
12,O=[N+]([O-])c1cc([N+](=O)[O-])c(Nc2nnnn2CCO)c([N+](=O)[O-])c1,inactive: -1.18%
13,CC1=C2N=C(C=C3N=C(C(C)=C4[N-][C@@](C)([C@@H]5N=C1[C@](C)(CCC(=O)NC[C@@H](C)OP(=O)([O-])O[C@H]1[C@@H](O)[C@@H](n6cnc7cc(C)c(C)cc76)O[C@@H]1CO)[C@H]5CC(N)=O)[C@@](C)(CC(N)=O)[C@@H]4CCC(N)=O)[C@@](C)(CC(N)=O)[C@@H]3CCC(N)=O)C(C)(C)[C@@H]2CCC(N)=O.[C-]#N.[Co+3],inactive: -0.51%
14,COc1ccccc1OP(C)(=O)Nc1c(C)cccc1C (stereo unspecified),inactive: -8.36%
15,CN1CCCCC1COC(=O)C1(O)c2ccccc2CCc2ccccc21 (stereo unspecified),inactive: 2.22%
16,CP(=O)(Nc1ccc(SC(F)(F)F)cc1)Oc1ccccc1 (stereo unspecified),inactive: 15.3%
17,CCCOc1ccc(NP(C)(=O)Oc2ccc(Cl)cc2)cc1 (stereo unspecified),inactive: 62.7%
18,O=[N+]([O-])c1cc([N+](=O)[O-])c(-n2nnc3ccccc32)c([N+](=O)[O-])c1,inactive: 1.44%
19,Cc1nc2ccc3ccccc3c2s1.O=[N+]([O-])c1cc([N+](=O)[O-])c(O)c([N+](=O)[O-])c1,inactive: 2.1%
20,CP(=O)(Nc1ccc(SC(F)(F)F)cc1)Oc1ccc(F)cc1 (stereo unspecified),inactive: 61.5%
21,CCOP(C)(=S)SCC(=O)NC(C)(CC)C(=O)O (stereo unspecified),inactive: -12.4%
22,CP(=O)(Nc1ccc2c(c1)OCCO2)Oc1ccccc1 (stereo unspecified),inactive: 5.97%

row,Compound,inhibition
1,Cc1ccccc1NP(C)(=O)Nc1ccccc1C,inactive: 8.11%
2,COc1ccc(OP(C)(=O)Nc2cccc(Br)c2)cc1 (stereo unspecified),inactive: 4.04%
3,COc1ccc(NP(C)(=O)Oc2ccccc2OC)cc1 (stereo unspecified),inactive: -4.6%
4,CN(C)CCOC(=O)C(O)(c1ccccc1)C1CCCCC1 (stereo unspecified),inactive: -3.21%
5,O=[N+]([O-])c1cc([N+](=O)[O-])c(NCC2CCS(=O)(=O)C2)c([N+](=O)[O-])c1 (stereo unspecified),inactive: 16.3%
6,O=[N+]([O-])c1ccc(OP2(=O)COCCO2)cc1 (stereo unspecified),inactive: 1.72%
7,COc1ccc(OP(C)(=O)Nc2ccc(SC(F)(F)F)cc2)cc1 (stereo unspecified),inactive: 7.83%
8,CCOC(=O)c1ccc(NP(C)(=O)Oc2ccc(F)cc2)cc1 (stereo unspecified),inactive: 4.14%
9,CCN(CC)CCCOC(=O)C(O)(c1ccccc1)C1CCCCC1 (stereo unspecified),inactive: 0.35%
10,O=[N+]([O-])c1cc([N+](=O)[O-])c(OC2CCCCC2O)c([N+](=O)[O-])c1 (stereo unspecified),inactive: 0.74%
11,CP(=O)(Nc1ccccc1)Oc1ccc(F)cc1 (stereo unspecified),inactive: 0.28%
12,CC(C)c1ccc(OP(C)(=O)Nc2ccc(SC(F)(F)F)cc2)cc1 (stereo unspecified),inactive: 17.5%
13,CP(=O)(Nc1ccccc1F)Oc1ccccc1 (stereo unspecified),inactive: -7.38%
14,O=C(OCCN1CCN(CCOCc2ccccc2)CC1)C(O)(c1ccccc1)c1ccccc1,inactive: -1.7%
15,O=C(OC1CN2CCC1CC2)c1ccc([N+](=O)[O-])cc1 (stereo unspecified),inactive: -1.84%
16,COc1ccc2c(c1O)-c1c(O)c(OC)cc3c1[C@H](C2)[N+](C)(C)CC3.O=[N+]([O-])c1cc([N+](=O)[O-])c([O-])c([N+](=O)[O-])c1[O-],inactive: 14.9%
17,COc1ccccc1OP(C)(=O)Nc1ccc(Br)cc1 (stereo unspecified),inactive: 13.8%
18,CN(C)CCOC(=O)C(O)(c1ccccc1)C1CCCC1 (stereo unspecified),inactive: -5.13%
19,COc1ccc(OP(C)(=O)Nc2ccccn2)cc1 (stereo unspecified),inactive: 5.71%
20,Cc1c(NP(C)(=O)Oc2ccc(C(C)C)cc2)c(=O)n(-c2ccccc2)n1C (stereo unspecified),inactive: 5.22%
21,CCc1ccc(OP(C)(=O)O)cc1,inactive: -0.22%
22,COc1ccccc1OP(C)(=O)Nc1ccc(C)cc1C (stereo unspecified),inactive: 7.15%

row,Compound,inhibition
1,CP(=O)(Nc1ccccn1)Oc1ccccc1 (stereo unspecified),inactive: -5.5%
2,Cc1cc(C)cc(OP(C)(=O)Nc2cccc(C(F)(F)F)c2)c1 (stereo unspecified),inactive: -1%
3,COc1ccc(OP(C)(=O)Nc2ccccc2Br)cc1 (stereo unspecified),inactive: 3.48%
4,COc1ccccc1OP(C)(=O)Nc1ccc(C)c(C)c1 (stereo unspecified),inactive: -4.56%
5,Cc1nc2ccc3ccccc3c2o1.O=[N+]([O-])c1cc([N+](=O)[O-])c(O)c([N+](=O)[O-])c1,inactive: -4.28%
6,CP(=O)(OCCOc1ccccc1)OCCOc1ccccc1,inactive: 0.5%
7,CP(=O)(Nc1ccc(Cl)cc1Cl)Oc1ccccc1 (stereo unspecified),inactive: 6.62%
8,Nc1ccc2c(ccc3cccnc32)n1.O=[N+]([O-])c1cc([N+](=O)[O-])c(O)c([N+](=O)[O-])c1,inactive: 6.56%
9,CP(=O)(OC12CC3CC(CC(C3)C1)C2)OC12CC3CC(CC(C3)C1)C2,inactive: -4.86%
10,CCOC(=O)c1ccc(NP(C)(=O)Oc2ccc(Cl)cc2)cc1 (stereo unspecified),inactive: 5%
11,COc1ccc(OP(C)(=O)Nc2ccc(Br)cc2)cc1 (stereo unspecified),inactive: 11.1%
12,CCN(CC)CC(O)COC(=O)C(O)(c1ccccc1)C1CCCCC1 (stereo unspecified),inactive: -5.88%
13,CCc1ccc(OP(C)(=O)Nc2cccnc2)cc1 (stereo unspecified),inactive: -3.17%
14,CP(=O)(Oc1ccccc1)N1CCOC1=O (stereo unspecified),inactive: 2.66%
15,O=C(OCCCN1CCCC1)C(O)(c1ccccc1)C1CCCCC1 (stereo unspecified),inactive: -4.87%
16,COc1ccccc1OP(C)(=O)Nc1c(C)n(C)n(-c2ccccc2)c1=O (stereo unspecified),inactive: -8.09%
17,CP(=O)(Nc1ccc(Cl)cc1)Oc1ccc(F)cc1 (stereo unspecified),inactive: 2.94%
18,CC(C)(C)c1ccc(OP(C)(=O)O)cc1,inactive: -11.7%
19,COc1ccccc1OP(C)(=O)Nc1ccccc1Br (stereo unspecified),inactive: -1.22%
20,CN(C)C(=O)c1c([N+](=O)[O-])cc([N+](=O)[O-])cc1[N+](=O)[O-],inactive: 0.08%
